Compound potency records, mixed from different reports. Data source: NIAID ChemDB in PubChem.

Common to all: growth or infection tests; agent: HIV-1; read-out: EC50

ECn: concentration that inhibits the pathogen or its effect by n%. Rows are shuffled and stem from different studies. An empty or dashed field is not shown.

structure | strain or isolate | changes | setting | cells | read by | result
CC(C)C1=C2[C@H]3CC[C@@H]4[C@@]5(C)CC[C@H](OC(=O)[C@H]6C[C@@H](C(=O)O)C6(C)C)C(C)(C)[C@@H]5CC[C@@]4(C)[C@]3(C)CC[C@@]2(CCNCC(C)(C)NC(=O)c2cc(C(C)C)[nH]n2)CC1=O | 92HT599 | - | - | MT-2 | p24 / ELISA | <1 µM
CC(C)C1=C2[C@H]3CC[C@@H]4[C@@]5(C)CC[C@H](OC(=O)CC(C)(C)C(=O)O)C(C)(C)[C@@H]5CC[C@@]4(C)[C@]3(C)CC[C@@]2(NC(=O)c2cn(C)cn2)CC1=O | IIIB | - | 30% human serum | MT-2 | RT activity | <0.199 µM
COCc1nc(Nc2ccc(C#N)cc2)nc(Nc2c(C)cc(/C=C/C#N)cc2C)c1C(=O)NCCC#N | L1001+K103N | - | - | MT4 CMV-EGFP | - | 0.0282 µM
Cc1ccnc2c1NC(=O)c1cccnc1N2C1CC1 | SF162 | - | - | TZM-bl | luciferase / luminescence | 0.04152 µM
C=C1CC[C@@H]2C(C)(CO)[C@@H](O)CC[C@@]2(C)[C@@H]1C/C=C1/C(=O)OC[C@@H]1O | - | - | - | TZM-bl | MTT / ELISA | 2.75 µM
CCC1CN=C(c2ccc3nc(Cc4nc5ccc(C6=NCC(CC)N6)cc5[nH]4)[nH]c3c2)N1 | IIIB | - | - | MT-4 | cytopathic effect / propidium iodide | 6.7 µM
COCc1nc(Nc2ccc(C#N)cc2)nc(Nc2c(C)cc(/C=C/C#N)cc2C)c1C(=O)N(C)CCN(C)C | MDR | - | - | MT4 CMV-EGFP | - | 3.63 µM
CC(C)C1=C2C3CCC4[C@@]5(C)CC[C@H](OC(=O)CC(C)(C)C(=O)O)C(C)(C)C5CC[C@@]4(C)[C@]3(C)CC[C@@]2(NC(=O)NC2CCN(C)CC2)CC1=O | IIIB | - | 30% human serum | MT-2 | RT activity | <0.199 µM
CC(=O)N[C@@H](CCC(N)=O)C(=O)N[C@@H](C)C(=O)N[C@@H](CC(C)C)[C@@H](O)CC(=O)N[C@H](C(=O)N[C@H](C(N)=O)C(C)C)C(C)C | IIIB | - | - | MT-4 | ELISA / antigen | 750 µM
CC(C)C1=C2C3CCC4[C@@]5(C)CC[C@H](OC(=O)CC(C)(C)C(=O)O)C(C)(C)C5CC[C@@]4(C)[C@]3(C)CC[C@@]2(NC(=O)NCc2cccnc2)CC1=O | IIIB | - | 30% human serum | MT-2 | RT activity | <0.199 µM
COCc1nc(Nc2ccc(C#N)cc2)nc(Nc2c(C)cc(/C=C/C#N)cc2C)c1C(=O)N1CCN(CCO)CC1 | L1001+K103N | - | - | MT4 CMV-EGFP | - | 0.257 µM
CC(C)C1=C2[C@H]3CC[C@@H]4[C@@]5(C)CC[C@H](OC(=O)[C@H]6C[C@@H](C(=O)O)C6(C)C)C(C)(C)[C@@H]5CC[C@@]4(C)[C@]3(C)CC[C@@]2(CCNC[C@@H](C)NC(=O)c2ccc(Cl)cc2)CC1=O | 92HT599 | - | - | MT-2 | p24 / ELISA | <1 µM
Nc1c(C(=O)NCc2ccc(F)cc2F)c(=O)n(O)c2ncc(CCCCCCCCO)cc12 | - | G140S/Q148H | pseudotyped | HOS | luciferase / single cycle | 0.007 µM
CC[C@H](C)[C@H](NC(=O)C[C@H](O)[C@H](CC(C)C)NC(=O)[C@H](C)NC(=O)[C@H](C)NC(C)=O)C(N)=O | IIIB | - | - | MT-4 | ELISA / antigen | >1000 µM
COCc1nc(Nc2ccc(C#N)cc2)nc(Nc2c(C)cc(/C=C/C#N)cc2C)c1C(=O)NCCN1CCOCC1 | L1001+K103N | - | - | MT4 CMV-EGFP | - | 0.214 µM
[2H]C(CCCN)(CNC(=O)c1ccc(Cl)cc1)NC(=O)C[C@@]12CC[C@]3(C)[C@H](CC[C@@H]4[C@@]5(C)CC[C@H](OC(=O)[C@H]6C[C@@H](C(=O)O)C6(C)C)C(C)(C)[C@@H]5CC[C@]43C)C1=C(C(C)C)C(=O)C2 | 92HT599 | - | - | MT-2 | p24 / ELISA | <1 µM
CC(C)C1=C2[C@H]3CC[C@@H]4[C@@]5(C)CC[C@H](OC(=O)CC(C)(C)C(=O)O)C(C)(C)[C@@H]5CC[C@@]4(C)[C@]3(C)CC[C@@]2(NC(=O)c2ccccn2)CC1=O | IIIB | - | 30% human serum | MT-2 | RT activity | <0.199 µM
COCc1nc(Nc2ccc(C#N)cc2)nc(Nc2c(C)cc(/C=C/C#N)cc2C)c1C(=O)NC1CC1 | MDR | - | - | MT4 CMV-EGFP | - | 0.141 µM
N=C1Sc2ccccc2C2=NCCCN12 | 92UG001 | - | - | PBMC | MTS | 1.11 µM
NC(=NC1CC1)c1ccc2nc(Cc3nc4ccc(C(N)=NC5CC5)cc4[nH]3)[nH]c2c1 | IIIB | - | - | MT-4 | cytopathic effect / propidium iodide | 20.6 µM
CC(C)C1=C2[C@H]3CC[C@@H]4[C@@]5(C)CC[C@H](OC(=O)[C@H]6C[C@@H](C(=O)O)C6(C)C)C(C)(C)[C@@H]5CC[C@@]4(C)[C@]3(C)CC[C@@]2(CCNCc2ccc(Cl)cc2OCCN2CCS(=O)(=O)CC2)CC1=O | 92HT599 | - | - | MT-2 | p24 / ELISA | <1 µM
CC(C)C1=C2C3CCC4[C@@]5(C)CC[C@H](OC(=O)CC(C)(C)C(=O)O)C(C)(C)C5CC[C@@]4(C)[C@]3(C)CC[C@@]2(NC(=O)NCC2CCC(F)(F)CC2)CC1=O | IIIB | - | 30% human serum | MT-2 | RT activity | <0.199 µM
COCc1nc(Nc2ccc(C#N)cc2)nc(Nc2c(C)cc(/C=C/C#N)cc2C)c1C(=O)N(C)OC | K103N+Y101C | - | - | MT4 CMV-EGFP | - | 0.0759 µM
CC(C)C1=C2[C@H]3CC[C@@H]4[C@@]5(C)CC[C@H](OC(=O)[C@H]6C[C@@H](C(=O)O)C6(C)C)C(C)(C)[C@@H]5CC[C@@]4(C)[C@]3(C)CC[C@@]2([C@@H](O)CNC(=O)[C@@H]2CCCNC2)CC1=O | 92HT599 | - | - | MT-2 | p24 / ELISA | <1 µM
C=C(C)[C@@H]1CC[C@]2(C(=O)NCCCCCCCCC(=O)N[C@H](CCC(N)=O)C(=O)OC)CC[C@]3(C)[C@H](CC[C@@H]4[C@@]5(C)CC[C@H](OC(=O)CC(C)(C)C(=O)O)C(C)(C)[C@@H]5CC[C@]43C)[C@@H]12 | NL4-3 | - | - | - | absorbance | 0.0125 µM
COc1ccc(S(=O)(=O)N(C[C@@H](O)[C@H](Cc2ccccc2)NC(=O)[C@H](CC(N)=O)NC(=O)c2ccc3ccccc3n2)OC2CCCC2)cc1 | IIIB | - | - | MT-4 | cytopathic effect / propidium iodide | 0.024 µM
CC(C)C1=C2[C@H]3CC[C@@H]4[C@@]5(C)CC[C@H](OC(=O)CC(C)(C)C(=O)O)C(C)(C)[C@@H]5CC[C@@]4(C)[C@]3(C)CC[C@@]2(NC(=O)c2nccs2)CC1=O | IIIB | - | 30% human serum | MT-2 | RT activity | <0.199 µM
CC[C@H](C)[C@H](NC(=O)C[C@H](O)[C@H](CC(C)C)NC(=O)[C@H](C)NC(=O)[C@H](CCC(=O)O)NC(C)=O)C(N)=O | IIIB | - | - | MT-4 | ELISA / antigen | 1000 µM
Cc1ccc(C(=O)Nc2cccc(C(=O)N/N=C/c3ccc(Br)cc3)c2)cc1 | IIIB | - | - | MT-2 | cytopathic effect / XTT / ELISA | >100 µg/mL
CC(C)C1=C2[C@H]3CC[C@@H]4[C@@]5(C)CC[C@H](OC(=O)CC(C)(C)C(=O)O)C(C)(C)[C@@H]5CC[C@@]4(C)[C@]3(C)CC[C@@]2(NC(=O)C2CCCN2C)CC1=O | IIIB | - | 30% human serum | MT-2 | RT activity | <0.199 µM
c1cc2nc(Cc3nc4ccc(C5=N[C@H]6CCCC[C@@H]6N5)cc4[nH]3)[nH]c2cc1C1=N[C@H]2CCCC[C@@H]2N1 | IIIB | - | - | MT-4 | cytopathic effect / propidium iodide | 3 µM
CCC(=O)c1ccc(F)c([C@@H]2C[C@@H]2NC(=O)Nc2ccc(C#N)cn2)c1O | LAI | NNRTI-resistant (RT E138K) | - | TZM-bl | β-galactosidase / luminescence | 0.00189 µM
CC(C)C1=C2C3CCC4[C@@]5(C)CC[C@H](OC(=O)CC(C)(C)C(=O)O)C(C)(C)C5CC[C@@]4(C)[C@]3(C)CC[C@@]2(NC(=O)OCCC2CC2)CC1=O | IIIB | - | 30% human serum | MT-2 | RT activity | <0.199 µM
CC(C)C1=C2[C@H]3CC[C@@H]4[C@@]5(C)CC[C@H](OC(=O)[C@H]6C[C@@H](C(=O)O)C6(C)C)C(C)(C)[C@@H]5CC[C@@]4(C)[C@]3(C)CC[C@@]2(CCNC(=O)C(C)(C)C)CC1=O | 92HT599 | - | - | MT-2 | p24 / ELISA | <1 µM
NC(=NC1CCCCC1)c1ccc2nc(Cc3nc4ccc(C(N)=NC5CCCCC5)cc4[nH]3)[nH]c2c1 | IIIB | - | - | MT-4 | cytopathic effect / propidium iodide | 2.6 µM
COCc1nc(Nc2ccc(C#N)cc2)nc(Nc2c(C)cc(/C=C(\C)C#N)cc2C)c1C(=O)NCc1ccncc1 | K103N + Y181C | - | - | MT4 CMV-EGFP | - | 0.02 µM

The last 4 rows once more:

structure,strain or isolate,changes,setting,cells,read by,result
CC(C)C1=C2C3CCC4[C@@]5(C)CC[C@H](OC(=O)CC(C)(C)C(=O)O)C(C)(C)C5CC[C@@]4(C)[C@]3(C)CC[C@@]2(NC(=O)OCCC2CC2)CC1=O,IIIB,-,30% human serum,MT-2,RT activity,<0.199 µM
CC(C)C1=C2[C@H]3CC[C@@H]4[C@@]5(C)CC[C@H](OC(=O)[C@H]6C[C@@H](C(=O)O)C6(C)C)C(C)(C)[C@@H]5CC[C@@]4(C)[C@]3(C)CC[C@@]2(CCNC(=O)C(C)(C)C)CC1=O,92HT599,-,-,MT-2,p24 / ELISA,<1 µM
NC(=NC1CCCCC1)c1ccc2nc(Cc3nc4ccc(C(N)=NC5CCCCC5)cc4[nH]3)[nH]c2c1,IIIB,-,-,MT-4,cytopathic effect / propidium iodide,2.6 µM
COCc1nc(Nc2ccc(C#N)cc2)nc(Nc2c(C)cc(/C=C(\C)C#N)cc2C)c1C(=O)NCc1ccncc1,K103N + Y181C,-,-,MT4 CMV-EGFP,-,0.02 µM